From paper PMC11053489 (Viruses, 2024)

Tests used:
[1] = test system: COVID-19 / SARS-CoV-2 infection; conditions: topical nasal spray, 300 hospital personnel; cited from earlier work
[2] = test system: SARS-CoV-2 (hCoV-19/USA-WA1/2020) in Calu-3 cells; format: cell-based
[3] = test system: SARS-CoV-2 (hCoV-19/USA-WA1/2020) in Vero CCL-81 cells; format: cell-based
[4] = test system: SARS-CoV-2 (hCoV-19/USA-WA1/2020) in Caco-2 cells
[5] = Peak plasma concentration; conditions: Table 1; Cmax × Fun

| Substance | relative risk reduction [1] [%] | EC50 [2] [nM] | EC50 [3] [nM] | EC50 ([4]; read-out: Caco-2 SARS-CoV-2 EC50) [nM] | Caco-2 Unbound Cmax/EC50 ([4]; Caco-2) | Cmax (μM) {unbound} [5] [µM] |
| --- | --- | --- | --- | --- | --- | --- |
| Iota-Carrageenan | 79.8 | 500 | 700 | 59200 |  |  |
| VV116 |  |  |  |  | 105 | 8.37 |
